Laboratory results from US20040101534A1 (priority 2002, published 2004).

Assays:
[1] = Solubility in saline with DMSO; conditions: physiologic saline with minimal DMSO
[2] = test system: T2 cells loaded with pp65495-503; experiment: Chromium release assay of in vitro stimulated splenocytes from immunized transgenic mice, peptide-loaded T2 targets

CSCC[C@H](NC(=O)[C@@H]1CCCN1C(=O)[C@@H](NC(=O)[C@H](CC(C)C)NC(=O)[C@H](CC(N)=O)NC(=O)[C@H](C)NC(=O)[C@H](C)NC(=O)[C@H](C)NC(=O)[C@H](CCCCN)NC(=O)[C@H](CC(C)C)NC(=O)[C@@H](NC(=O)[C@H](Cc1c[nH]c2ccccc12)NC(=O)[C@H](C)NC(=O)[C@H](C)NC(=O)[C@@H](NC(=O)[C@H](CC1CCCCC1)NC(=O)[C@H](CCCCN)NC(=O)[C@H](C)NC(=O)[C@H](CO)NC(=O)[C@H](CO)NC(=O)[C@@H](N)CCCCN)C(C)C)[C@@H](C)O)C(C)C)C(=O)N[C@H](C(=O)N[C@@H](C)C(=O)N[C@H](C(=O)N[C@H](C(=O)O)C(C)C)[C@@H](C)O)C(C)C
solubility [1]: favorable solubility

KSSYIKANSKFIGITEAAANLVPMVATV
CTL response ([2]; subcutaneous, 50 or 100 nmol, without CpG ss-ODN adjuvant): not able to stimulate a vigorous CTL response

VSTIVPYIGPALNIAAANLVPMVATV
effect of CpG ss-ODN on CTL response ([2]; 50 nmol peptide alone vs with 25 μg ss-ODN #1826, subcutaneous, compared with KTet830V): not as dramatic
peptide-specific responses ([2]; 50 nmol subcutaneous alone or with 25 μg CpG ss-ODN, after one immunization): easily measured
